Pooled drug test results. Numbers come from NIAID ChemDB, via PubChem.

Common to all: tests on isolated targets; species: HIV-1; target: Reverse transcriptase; read-out: IC50

ICn: concentration for n% inhibition. Rows are shuffled and stem from different studies. An empty or dashed field is not shown. Two numbers with a dash give a range or band.

{"compound": "CCN1c2ncc(CCOc3ccc(C(C)C(=O)O)c4ccccc34)cc2C(=O)N(C)c2cccnc21", "mutations": "RT-Y188L", "read by": "nucleotide incorporation / radiometric", "value": ">1 µM"}
{"compound": "CCN1c2ncc(CCc3ccccc3N)cc2C(=O)N(C)c2ccc(Cl)nc21", "mutations": "RT-Y181C", "read by": "nucleotide incorporation / radiometric", "value": "<1 µM"}
{"compound": "NS(=O)(=O)c1ccc(NC(=O)CSc2nnc(Br)n2-c2ccc(F)c3ccccc23)c(Cl)c1", "mutations": "RT-Y181C", "read by": "nucleotide incorporation / radiometric", "value": "<0.05 µM"}
{"compound": "CCN1c2ncc(CCOc3ccc(NS(C)(=O)=O)c4ccccc34)cc2C(=O)N(C)c2ccc(F)nc21", "mutations": "RT-K103N Y181C", "read by": "nucleotide incorporation / radiometric", "value": "<0.1 µM"}
{"compound": "Cc1cc(C(=O)O)ccc1NC(=O)CSc1nnc(C(F)F)n1-c1ccc(C)c2c1CCCC2", "mutations": "RT-Y188L", "read by": "nucleotide incorporation / radiometric", "value": ">0.1 µM"}
{"compound": "CC(C)(C#Cc1ccc(NC(=O)CSc2nnnn2-c2cc(C(C)(C)C)cc(Br)c2Cl)c(Cl)c1)NC(=O)CN1CCNCC1", "strain or isolate": "WT", "read by": "PicoGreen / fluorescence", "value": "<1 µM"}
{"compound": "CC(C)OC(=O)CNC(=O)c1ccc(NC(=O)CSc2nnc(Br)n2-c2ccc(C3CC3)c3ccccc23)c(Cl)c1", "read by": "nucleotide incorporation / radiometric", "value": "<0.05 µM"}
{"compound": "CCN1c2ncc(CCOc3ccc(S(=O)(=O)c4ccncc4)cc3C)cc2C(=O)N(C)c2cccnc21", "strain or isolate": "IIIB", "mutations": "RT-K103N Y181C", "read by": "nucleotide incorporation / radiometric", "value": "<0.05 µM"}
{"compound": "CC(=O)Nc1ccc2c(c1)CN(c1nn3c(C)nnc3c3ccccc13)CC2", "strain or isolate": "98US_MSC5016", "read by": "RT activity / fluorescence", "value": "7.6 µM"}
{"compound": "CC(C)(C#Cc1ccc(NC(=O)CSc2nnnn2-c2cc(C(F)(F)F)cc(C3CC3)c2Cl)c(Cl)c1F)NC(=O)c1ccc[n+]([O-])c1", "mutations": "RT-K103 Y181C", "read by": "PicoGreen / fluorescence", "value": "<1 µM"}
{"compound": "CCN1c2ncc(/C=C\\c3cn[nH]c3)cc2C(=O)Nc2c(C)ccnc21", "strain or isolate": "WT", "read by": "nucleotide incorporation / radiometric", "value": "<1 µM"}
{"compound": "CN(C)c1ccc(NC(=O)COc2ccc(NC(=O)CSc3nnnn3-c3ccc(C(C)(C)C)cc3Cl)c(Cl)c2)cc1", "mutations": "RT-K103 Y181C", "read by": "PicoGreen / fluorescence", "value": "<1 µM"}
{"compound": "CNS(=O)(=O)c1ccc(NC(=O)CSc2nnc(C(F)F)n2-c2ccc(C)c3ccccc23)c(Cl)c1", "read by": "nucleotide incorporation / radiometric", "value": "<0.05 µM"}
{"compound": "CCN1c2nc(Cl)ccc2NC(=O)c2cc(CCc3cccc(NS(C)(=O)=O)c3)cnc21", "mutations": "RT-Y181C", "read by": "nucleotide incorporation / radiometric", "value": "<1 µM"}
{"compound": "CC(C)(C#Cc1ccc(NC(=O)CSc2nnnn2-c2ccc(C(C)(C)C)cc2Cl)c(Cl)c1)OCC(=O)Nc1ccc(/C=C/C(=O)O)cc1", "strain or isolate": "WT", "read by": "PicoGreen / fluorescence", "value": "<1 µM"}
{"compound": "CCc1cc(CCc2nc3ccccc3o2)c(=O)[nH]c1C", "mutations": "RT-Y181C", "read by": "nucleotide incorporation", "value": "8.72 µM"}
{"compound": "CSCCC(NC(=O)c1ccc(NC(=O)CSc2nnnn2-c2ccc(C(C)(C)C)cc2Cl)c(Cl)c1)C(=O)O", "strain or isolate": "WT", "read by": "PicoGreen / fluorescence", "value": "<1 µM"}
{"compound": "CCCc1ccc(-n2c(Br)nnc2SCC(=O)Nc2ccc(S(N)(=O)=O)cc2C)c2ccccc12", "read by": "nucleotide incorporation / radiometric", "value": "<0.05 µM"}
{"compound": "CC(C)(C)c1ccc(-n2nnnc2SCC(=O)Nc2ccc(OCC(=O)NC(CO)C(=O)O)cc2Cl)c(Cl)c1", "mutations": "RT-K103 Y181C", "read by": "PicoGreen / fluorescence", "value": "<1 µM"}
{"compound": "CCN1c2ncc(CCOc3ccc(-c4cccnc4)cc3C)cc2C(=O)N(C)c2cccnc21", "strain or isolate": "IIIB", "mutations": "RT-K103N Y181C", "read by": "nucleotide incorporation / radiometric", "value": "<0.05 µM"}
{"compound": "Cc1cc(S(=O)(=O)O)ccc1NC(=O)CSc1nnc(C(F)F)n1-c1ccc(C)c2c1CCCC2", "read by": "nucleotide incorporation / radiometric", "value": "<0.05 µM"}
{"compound": "CN(C)CCNC(=O)COC(C)(C)C#Cc1ccc(NC(=O)CSc2nnnn2-c2ccc(C(C)(C)C)cc2Cl)c(Cl)c1", "mutations": "RT-K103 Y181C", "read by": "PicoGreen / fluorescence", "value": "<1 µM"}
{"compound": "c1coc(-c2nnc3c4ccccc4c(N4CCc5ccccc5C4)nn23)c1", "strain or isolate": "98US_MSC5016", "read by": "RT activity / fluorescence", "value": "0.63 µM"}
{"compound": "Cc1cc(C)c(-n2nnnc2SCC(=O)Nc2ccc(-c3ccc(C(C)(C)C(=O)O)cc3)cc2Cl)c(Cl)c1", "mutations": "RT-K103 Y181C", "read by": "PicoGreen / fluorescence", "value": "<1 µM"}
{"compound": "CCN1c2ncc(CCOc3ccc(NC(C)=O)cc3C)cc2C(=O)N(C)c2cccnc21", "strain or isolate": "IIIB", "read by": "nucleotide incorporation / radiometric", "value": "<0.05 µM"}
{"compound": "O=C(CSc1nnc(Br)n1-c1c(Cl)cc(C2CCC2)c2ccccc12)Nc1ccc(C(=O)O)cc1Cl", "mutations": "RT-Y181C", "read by": "nucleotide incorporation / radiometric", "value": "<0.05 µM"}
{"compound": "CC(C)(C)c1ccc(-n2nnnc2SCC(=O)Nc2ccc(OCC(=O)NCc3ccc(N)cc3)cc2Cl)c(Cl)c1", "strain or isolate": "WT", "read by": "PicoGreen / fluorescence", "value": "<1 µM"}
{"compound": "Cc1nnc2c3c(c(N4CCc5ccccc5C4)nn12)C1CCC3CC1", "strain or isolate": "KER2008", "read by": "RT activity / fluorescence", "value": "5.63 µM"}
{"compound": "COC(C)(C)C#Cc1ccc(NC(=O)CSc2nnnn2-c2ccc(C3CC3)cc2Cl)c(Cl)c1", "mutations": "RT-K103 Y181C", "read by": "PicoGreen / fluorescence", "value": "<1 µM"}
{"compound": "NS(=O)(=O)c1ccc(NC(=O)CSc2nnc(Br)n2-c2ccc(C3CC3)cc2OC(F)(F)F)c(Cl)c1", "mutations": "RT-Y188L", "read by": "nucleotide incorporation / radiometric", "value": ">0.1 µM"}
{"compound": "FC(F)(F)Cc1nnc2c3ccccc3c(N3CCc4ccccc4C3)nn12", "strain or isolate": "98US_MSC5016", "read by": "RT activity / fluorescence", "value": "0.9 µM"}
{"compound": "CCc1ccc(-n2c(Br)nnc2SCC(=O)Nc2ccc(C(=O)NCC(C)(C)N)cc2Cl)c2ccccc12", "mutations": "RT-Y188L", "read by": "nucleotide incorporation / radiometric", "value": "0.05–0.1 µM"}
{"compound": "CC(C)(C#Cc1ccc(NC(=O)CSc2nnnn2-c2cc(C(C)(C)C)ccc2Cl)c(Cl)c1)C(=O)O", "strain or isolate": "WT", "read by": "PicoGreen / fluorescence", "value": "<1 µM"}
{"compound": "COc1cccc2c(-n3c(Br)nnc3SCC(=O)Nc3ccc(C(=O)O)cc3Cl)cccc12", "mutations": "RT-Y188L", "read by": "nucleotide incorporation / radiometric", "value": ">0.1 µM"}
{"compound": "N#Cc1ccc2c(c1)CN(c1nn3c(C4CC4)nnc3c3ccccc13)CC2", "strain or isolate": "KER2008", "read by": "RT activity / fluorescence", "value": "1.71 µM"}
{"compound": "CC(C)(C#Cc1ccc(NC(=O)CSc2nnnn2-c2ccc(C(C)(C)C)cc2Cl)c(Cl)c1)C(=O)NC1CC1", "strain or isolate": "WT", "read by": "PicoGreen / fluorescence", "value": "<1 µM"}
{"compound": "COC(=O)[C@H](CC(C)C)NC(=O)c1ccc(NC(=O)CSc2nnc(Br)n2-c2ccc(C3CC3)c3ccccc23)c(Cl)c1", "mutations": "RT-Y188L", "read by": "nucleotide incorporation / radiometric", "value": "0.05–0.1 µM"}
{"compound": "CC(C)(C)c1ccc(-n2nnnc2SCC(=O)Nc2ccc(C(=O)NCc3ccco3)cc2Cl)c(Cl)c1", "strain or isolate": "WT", "read by": "PicoGreen / fluorescence", "value": "<1 µM"}
{"compound": "CCN1c2ncc(CCOc3ccc(NC(=O)CC(C)(C)C(=O)O)c4ccccc34)cc2C(=O)N(C)c2cccnc21", "strain or isolate": "WT", "read by": "nucleotide incorporation / radiometric", "value": "<0.1 µM"}
{"compound": "Cc1ccc(-n2c(SCC(=O)Nc3ccc(C(=O)O)cc3Cl)nnc2C(F)F)c2c1CCCC2", "mutations": "RT-Y181C", "read by": "nucleotide incorporation / radiometric", "value": "<0.05 µM"}
{"compound": "CCN1c2ncc(CCOc3ccc(-c4ccncc4)cc3)cc2C(=O)N(C)c2cccnc21", "strain or isolate": "IIIB", "read by": "nucleotide incorporation / radiometric", "value": "<0.05 µM"}
{"compound": "Cc1ccc(-n2nnnc2SCC(=O)Nc2ccc(-c3coc(C)n3)cc2Cl)c(Cl)c1", "strain or isolate": "WT", "read by": "PicoGreen / fluorescence", "value": "<1 µM"}
{"compound": "CCN1c2ncc(CCOc3cccc4c3ccc[n+]4[O-])cc2C(=O)Nc2c(C)cc(Cl)nc21", "mutations": "RT-V106A", "read by": "nucleotide incorporation / radiometric", "value": "0.089 µM"}
{"compound": "COc1ccc2c(C3CC3)ccc(-n3c(Br)nnc3SCC(=O)Nc3ccc(S(=O)(=O)O)cc3Cl)c2c1", "mutations": "RT-Y188L", "read by": "nucleotide incorporation / radiometric", "value": "0.05–0.1 µM"}
{"compound": "CC(C)(C)c1ccc(-n2nnnc2SCC(=O)Nc2ccc(-c3ccc(CCC(=O)O)cc3)cc2Cl)c(Cl)c1", "mutations": "RT-K103 Y181C", "read by": "PicoGreen / fluorescence", "value": "<1 µM"}
{"compound": "CCc1ccc(-n2c(SCC(=O)Nc3ccc(C(=O)O)cc3C)nnc2C(F)F)c2ccccc12", "mutations": "RT-Y188L", "read by": "nucleotide incorporation / radiometric", "value": ">0.1 µM"}
{"compound": "CCN1c2ncc(CCc3ccc(C(=O)OC)cc3)cc2C(=O)N(C)c2cccnc21", "strain or isolate": "WT", "read by": "nucleotide incorporation / radiometric", "value": "<1 µM"}
{"compound": "Cc1nnc2c3ccccc3c(N3CCc4cccnc4C3)nn12", "strain or isolate": "IIIB", "read by": "RT activity / fluorescence", "value": "2.46 µM"}
{"compound": "CNS(=O)(=O)c1ccc(NC(=O)CSc2nnc(C(F)F)n2-c2ccc(C)c3c2CCCC3)c(Cl)c1", "mutations": "RT-Y188L", "read by": "nucleotide incorporation / radiometric", "value": ">0.1 µM"}
{"compound": "CC(C)(C#Cc1ccc(NC(=O)CSc2nnnn2-c2ccc(CC3CC3)cc2Cl)c(Cl)c1)OCCN1CCCC1", "mutations": "RT-K103 Y181C", "read by": "PicoGreen / fluorescence", "value": "<1 µM"}
{"compound": "NS(=O)(=O)c1ccc(NC(=O)CSc2nnc(Cl)n2-c2ccc(C3CC3)c3ccccc23)c(Cl)c1", "read by": "nucleotide incorporation / radiometric", "value": "<0.05 µM"}
{"compound": "CCN1c2ncc(CCOc3ccc(C(=O)O)c4c3CCCC4)cc2C(=O)N(C)c2ccc(C)nc21", "mutations": "RT-V106A", "read by": "nucleotide incorporation / radiometric", "value": ">1 µM"}
{"compound": "CC(C)C(=O)Nc1ccc(NC(=O)CSc2nnnn2-c2ccc(C(C)(C)C)cc2Cl)c(Cl)c1", "strain or isolate": "WT", "read by": "PicoGreen / fluorescence", "value": "<1 µM"}
{"compound": "CCOC(=O)CCNC(=O)c1ccc(NC(=O)CSc2nnc(Br)n2-c2ccc(CC)c3ccccc23)c(Cl)c1", "mutations": "RT-Y188L", "read by": "nucleotide incorporation / radiometric", "value": "0.05–0.1 µM"}
{"compound": "CC(C)(C)c1ccc(-n2nnnc2SCC(=O)Nc2ccc(OCC(=O)Nc3nc(C(=O)O)cs3)cc2Cl)c(Cl)c1", "strain or isolate": "WT", "read by": "PicoGreen / fluorescence", "value": "<1 µM"}
{"compound": "CCc1ccc(-n2c(I)nnc2SCC(=O)Nc2ccc(S(N)(=O)=O)cc2Cl)c2ccccc12", "read by": "nucleotide incorporation / radiometric", "value": "<0.05 µM"}
{"compound": "CC(C)(C)c1ccc(-n2nnnc2SCC(=O)Nc2ccc(C#CCCCCO)cc2Cl)c(Cl)c1", "strain or isolate": "WT", "read by": "PicoGreen / fluorescence", "value": "<1 µM"}
{"compound": "CCc1ccc(-n2c(Br)nnc2SCC(=O)Nc2ccc(C(=O)NCCN3CCCC3)cc2Cl)c2ccccc12", "read by": "nucleotide incorporation / radiometric", "value": "<0.05 µM"}

A second listing of 9 rows from above:

compound,strain or isolate,mutations,read by,value
CSCCC(NC(=O)c1ccc(NC(=O)CSc2nnnn2-c2ccc(C(C)(C)C)cc2Cl)c(Cl)c1)C(=O)O,WT,-,PicoGreen / fluorescence,<1 µM
Cc1ccc(-n2nnnc2SCC(=O)Nc2ccc(-c3coc(C)n3)cc2Cl)c(Cl)c1,WT,-,PicoGreen / fluorescence,<1 µM
Cc1cc(C(=O)O)ccc1NC(=O)CSc1nnc(C(F)F)n1-c1ccc(C)c2c1CCCC2,-,RT-Y188L,nucleotide incorporation / radiometric,>0.1 µM
NS(=O)(=O)c1ccc(NC(=O)CSc2nnc(Cl)n2-c2ccc(C3CC3)c3ccccc23)c(Cl)c1,-,-,nucleotide incorporation / radiometric,<0.05 µM
CNS(=O)(=O)c1ccc(NC(=O)CSc2nnc(C(F)F)n2-c2ccc(C)c3ccccc23)c(Cl)c1,-,-,nucleotide incorporation / radiometric,<0.05 µM
CC(C)(C#Cc1ccc(NC(=O)CSc2nnnn2-c2ccc(C(C)(C)C)cc2Cl)c(Cl)c1)OCC(=O)Nc1ccc(/C=C/C(=O)O)cc1,WT,-,PicoGreen / fluorescence,<1 µM
CCN1c2ncc(CCc3ccccc3N)cc2C(=O)N(C)c2ccc(Cl)nc21,-,RT-Y181C,nucleotide incorporation / radiometric,<1 µM
COC(=O)[C@H](CC(C)C)NC(=O)c1ccc(NC(=O)CSc2nnc(Br)n2-c2ccc(C3CC3)c3ccccc23)c(Cl)c1,-,RT-Y188L,nucleotide incorporation / radiometric,0.05–0.1 µM
CC(C)C(=O)Nc1ccc(NC(=O)CSc2nnnn2-c2ccc(C(C)(C)C)cc2Cl)c(Cl)c1,WT,-,PicoGreen / fluorescence,<1 µM